Target: T1, Ravn strain cleaved MARV GP ectodomain (Marburg virus, Ravn strain, UniProt Q1PDC7 19-648)
T1 chain: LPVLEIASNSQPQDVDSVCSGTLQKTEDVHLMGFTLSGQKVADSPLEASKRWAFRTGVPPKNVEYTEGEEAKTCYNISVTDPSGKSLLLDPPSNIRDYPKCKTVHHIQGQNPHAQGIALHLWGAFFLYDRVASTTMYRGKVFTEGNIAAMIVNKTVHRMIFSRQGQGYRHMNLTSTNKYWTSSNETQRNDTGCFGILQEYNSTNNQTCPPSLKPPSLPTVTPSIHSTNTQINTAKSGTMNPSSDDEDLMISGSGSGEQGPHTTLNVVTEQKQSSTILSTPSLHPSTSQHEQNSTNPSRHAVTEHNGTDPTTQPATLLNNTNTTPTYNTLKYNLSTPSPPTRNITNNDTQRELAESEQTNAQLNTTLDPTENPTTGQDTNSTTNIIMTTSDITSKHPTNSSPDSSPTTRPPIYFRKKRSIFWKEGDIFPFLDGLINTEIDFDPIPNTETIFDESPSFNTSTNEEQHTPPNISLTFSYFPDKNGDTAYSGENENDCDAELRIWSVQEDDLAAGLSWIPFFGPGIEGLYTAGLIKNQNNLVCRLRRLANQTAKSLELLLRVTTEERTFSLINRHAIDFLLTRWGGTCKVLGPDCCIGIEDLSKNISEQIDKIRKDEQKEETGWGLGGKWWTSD

B1: MR198 human monoclonal antibody (antibody)
chain 1: QVQLQESGPGLVKPSQTLSLSCTVSGGSISSDSYYWNWIRQHPGKGLEWIGYVYYSGSTNYNPSLKSRVIISLDTSKNQFSLKLNSVTAADTAVYYCARADYYGSGSFFYYYHMDVWGKG
chain 2: DIQMTQSPSTLSASVGDRVTITCRASQSIYTWLAWYQQKPGKAPKLLIHKSSSLESGVPSRFSGSGSGTEFTLTISSLQPDDFATYYCHQYYVYPCTSA
EC50: 0.8 µg/mL

Reference: patent US20210324051A1 (published 2021)
